A mixed list of measured activities; the numbers were collected in NIAID ChemDB.

Shared fields: tests in culture; organism: HIV-1; read-out: EC90

a–b is a range or a potency band.

smiles,strain or isolate,cell line,conditions,read by,mutations,value
Nc1ncnc2c1ncn2[C@H]1CC[C@@H](CO)O1,IIIB,MT-4,-,cytopathic effect / p24 / trypan blue,-,150 µM
Nc1c(S(=O)(=O)O)cc2c3c(cc(S(=O)(=O)O)cc13)C(=O)N(NC(=O)N/N=C/c1ccc(-c3ccc(/C=N/NC(=O)NN4C(=O)c5cc(S(=O)(=O)O)cc6c(N)c(S(=O)(=O)O)cc(c56)C4=O)cc3)cc1)C2=O,LAV,PBMC,-,trypan blue,-,13.5 µM
Nc1nc(N)c2ncn(CCOCP(=O)(O)O)c2n1,LAV,H9,-,RT activity,-,0.1 µM
CC(C)(C)NC(=O)[C@@H]1CN(Cc2cccnc2)CCN1C[C@@H](O)C[C@@H](Cc1ccccc1)C(=O)N[C@H]1c2ccccc2C[C@H]1O,IIIB,MT-4,-,cytopathic effect / MTT,-,0.041 µg/mL
CCCCCc1ccc(-c2cc3cn(CC=C(CO)CO)c(=O)nc3o2)cc1,LAI,PBMC,-,RT activity,-,13.07 µM
CC1=CCCC2C1(C)CCC(C)[C@@]2(C)CC1=CC(=O)C(NC(Cc2ccccc2)C(=O)O)=CC1=O,IIIB,C8166,-,syncytia,-,>8 µM
Cc1c(N)c(C(N)=O)nn1[C@@H]1O[C@H](CO)[C@@H](O)[C@H]1O,IIIB,C8166,-,syncytia,-,>320 µM
Nc1ccn([C@@H]2O[C@H](CO)C=C2F)c(=O)n1,xxBRU,PBMC,-,-,-,8 µM
CC(C)Nc1cccnc1N1CCN(C(=O)c2cc3cc(NS(C)(=O)=O)ccc3[nH]2)CC1,HXB2,MT-4,-,antigen,-,0.06 µM
CCCCCc1ccc(C#Cc2cn(C/C=C/C(O)CO)c(=O)[nH]c2=O)cc1,LAI,PBMC,-,RT activity,-,91.6 µM
Nc1nc(=O)n([C@@H]2CS[C@H](CO)O2)cc1F,-,Primary T lymphocytes,-,p24 / ELISA,A62V V75I F77L F116Y Q151M,2.1 µM
O=c1[nH]cnc2c1ncn2[C@H]1CC[C@@H](CO)O1,IIIB,MT-4,-,cytopathic effect / MTT,-,1.7 µg/mL
Nc1ccn([C@@H]2S[C@H](CO)C=C2F)c(=O)n1,xxBRU,PBMC,-,-,-,5 µM
O=c1[nH]cnc2c1ncn2[C@H]1CC[C@@H](CO)O1,NL4-3 WT,PBMC,-,p24,-,18 µM
Cc1cn([C@H]2C[C@H](N=[N+]=[N-])[C@@H](CO)O2)c(=O)[nH]c1=O,-,Macrophage,-,p24 / ELISA,-,0.07 µM
CC(C)Nc1cccnc1N1CCN(C(=O)c2cc3cc(NS(C)(=O)=O)ccc3[nH]2)CC1,Subtype B isolate,PBMC,-,RT activity,-,0.1 µM
CCn1nc(Cc2ccc(OC)c(C#N)c2)cc1C1CCN(C[C@H]2CN([C@@H](C(=O)O)C(C)(C)C)C[C@@H]2c2cccc(F)c2)CC1,BaL,HeLa,50% human serum,β-galactosidase,-,0.033 µM
CC1=CCCC2C1(C)CCC(C)[C@@]2(C)Cc1cc(=O)c2nc3[nH]cnc4ncn(c2c1=O)c43,IIIB,C8166,-,syncytia,-,>28.2 µM
CN=C1CN=C(c2ccc[nH]2)c2cc(Cl)ccc2N1,LAV-1,HT4 + HT4-6C,-,plaque count,-,2–3 µM
CCn1nc(Cc2ccccc2)cc1C1CCN(C[C@H]2CN([C@](C)(C(=O)O)C(C)C)C[C@@H]2c2cccc(F)c2)CC1,BaL,HeLa,-,β-galactosidase,-,>0.3 µM
CC(C)[C@H](NC(=O)N(C)Cc1ccccn1)C(=O)N[C@@H](Cc1ccccc1)[C@H](O)[C@@H](O)[C@H](Cc1ccccc1)NC(=O)[C@@H](NC(=O)N(C)Cc1ccccn1)C(C)C,IIIB,ATH8,-,cytopathic effect / trypan blue,-,0.9 µM
CCNC1=CC(=O)C(C[C@]2(C)C(C)CCC3(C)C(C)=CCCC32)=CC1=O,IIIB,C8166,-,syncytia,-,>18.6 µM
CCn1nc(Cc2ccc3ccccc3c2)cc1C1CCN(C[C@H]2CN([C@@H](C(=O)O)C(C)(C)C)C[C@@H]2c2cccc(F)c2)CC1,BaL,HeLa,-,β-galactosidase,-,<0.00014 µM
C1CNCCNCCCN[C@H]([C@@H]2CNCCCNCCNCCCN2)CNC1,IIIB,HuT-78 + HUT 78,-,antigen,-,1.45 µM
CC1=CCCC2C1(C)CCC(C)[C@@]2(C)CC1=CC(=O)C(NC(C)C(=O)O)=CC1=O,IIIB,C8166,-,syncytia,-,>5.7 µM
O=c1[nH]cnc2c1ncn2C1CC[C@@H](CO)O1,-,Primary T lymphocytes,-,p24 / ELISA,L74V,80.9 µM
CC(C)c1nc(CN(C)C(=O)N[C@H](C(=O)N[C@@H](Cc2ccccc2)C[C@H](O)[C@H](Cc2ccccc2)NC(=O)OCc2cncs2)C(C)C)cs1,IIIB,MT-4,-,cytopathic effect / MTT,-,0.056 µg/mL
CCCCCCCCC#Cc1cn(COCCO)c(=O)[nH]c1=O,LAI,PBMC,-,RT activity,-,~105 µM
Nc1c(S(=O)(=O)[O-])cc2c3c(cc(S(=O)(=O)[O-])cc13)C(=O)N(NC(=O)N/N=C\c1cccc(C=O)c1)C2=O.[Na+].[Na+],LAV,PBMC,-,trypan blue,-,95.9 µM
CC1=CCCC2C1(C)CCC(C)[C@@]2(C)CC1=CC(=O)C(N[C@@H]2C(O)O[C@@H](CO)C(O)C2O)=CC1=O,IIIB,C8166,-,syncytia,-,>7.1 µM
CC(=O)c1ccc(C)cc1NC(C(N)=O)c1c(Cl)cccc1Cl,IIIB,MT-4,-,cytopathic effect / MTT,-,0.021 µg/mL
Cc1cn([C@H]2C[C@H](N=[N+]=[N-])[C@@H](CO)O2)c(=O)[nH]c1=O,LAV,C3,-,RT activity,-,0.33 µM
CC(C)=CCN1Cc2cccc3[nH]c(=S)n(c23)C[C@@H]1C,Group O isolate,PBMC,-,RT activity,-,5.6 µM
CC[C@H](C)[C@H](C(=O)O)N1C[C@H](CN2CCC(c3cc(Cc4cccc5ccccc45)nn3CC)CC2)[C@@H](c2cccc(F)c2)C1,BaL,HeLa,-,β-galactosidase,-,<0.00014 µM
CC[C@H]1OC(=O)[C@H](C)[C@@H](O[C@H]2C[C@@](C)(OC)[C@@H](O)[C@H](C)O2)[C@H](C)[C@@H](O[C@@H]2O[C@H](C)C[C@H](N(C)C)[C@H]2O)[C@](C)(O)C[C@@H](C)C(=O)[C@H](C)[C@@H](O)[C@]1(C)O,LAV,PBMC,-,RT activity,-,>1000 µg/mL
O=C1N[C@H](Cc2ccccc2)[C@H](O)CN[C@H]1Cc1ccccc1,IIIB,MT-2,-,XTT,-,≤10 µg/mL
C1CNCCNCCCN(CCCN2CCCNCCNCCCNCC2)CCNC1,IIIB,CEM,-,antigen,-,5.1 µM
CNC1=CC(=O)C(C[C@]2(C)C(C)CCC3(C)C(C)=CCCC32)=CC1=O,IIIB,C8166,-,syncytia,-,>16.2 µM
Cc1cn([C@H]2C[C@H](N=[N+]=[N-])[C@@H](CO)O2)c(=O)[nH]c1=O,XM-M184V,MT-4,-,p24,RT-M184V,0.009 µM
CC(C)CN(C[C@@H](O)[C@H](Cc1ccccc1)NC(=O)[C@H](CC(N)=O)NC(=O)c1ccc2ccccc2n1)C(=O)NC(C)(C)C,LAV-1,CEM,-,RT activity,-,1.18 µM
CCn1nc(Cc2cc(C(F)(F)F)cc(C(F)(F)F)c2)cc1C1CCN(C[C@H]2CN([C@@H](C(=O)O)C(C)C)C[C@@H]2c2cccc(F)c2)CC1,BaL,HeLa,50% human serum,β-galactosidase,-,>0.3 µM
O=c1nc2oc(-c3ccccc3)cc2cn1COCCO,LAI,PBMC,-,RT activity,-,>100 µM

Repeating the final 4 entries:

smiles,strain or isolate,cell line,conditions,read by,mutations,value
Cc1cn([C@H]2C[C@H](N=[N+]=[N-])[C@@H](CO)O2)c(=O)[nH]c1=O,XM-M184V,MT-4,-,p24,RT-M184V,0.009 µM
CC(C)CN(C[C@@H](O)[C@H](Cc1ccccc1)NC(=O)[C@H](CC(N)=O)NC(=O)c1ccc2ccccc2n1)C(=O)NC(C)(C)C,LAV-1,CEM,-,RT activity,-,1.18 µM
CCn1nc(Cc2cc(C(F)(F)F)cc(C(F)(F)F)c2)cc1C1CCN(C[C@H]2CN([C@@H](C(=O)O)C(C)C)C[C@@H]2c2cccc(F)c2)CC1,BaL,HeLa,50% human serum,β-galactosidase,-,>0.3 µM
O=c1nc2oc(-c3ccccc3)cc2cn1COCCO,LAI,PBMC,-,RT activity,-,>100 µM

ECn is the concentration giving n% inhibition of infection, replication or growth. An empty or dashed field is not shown. Rows are shuffled and stem from different studies.